Source: PubChem BioAssay AID624099 (ICCB-Longwood, 2012)
Assay: 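Host factors E2 relies on to silence an HPV18 LCR reporter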 (primary screen). Cell system: human C33A cervical carcinoma cells (HPV-negative) stably expressing BPV1 E2 and an HPV18 LCR luciferase reporter. Knock-down reagent: siRNA pool against human genes, 40 nM. Time to read-out: 72 h. Detection: 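Per-well luciferase luminescence, z-scored on each plate against the plate mean and SD with control wells left out, then averaged across three replicate plates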. Scale: mean z-score and z-score: higher = stronger reporter signal, weaker E2 silencing. Active means: 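Hit if mean z-score reaches 2 and two or more of three replicate z-scores also reach 2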.
The whole screen tested about 21,000 reagents; shown is a part drawn at random. 497 of them (2.4%) were called active. 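Higher z means weaker E2 silencing; only reporter increases were scored, and knock-downs that hurt cell survival may mask genuine repressor factors.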

| gene knocked down | mean z-score | z-score, replicate A | z-score, replicate B | z-score, replicate C | Call |
| --- | --- | --- | --- | --- | --- |
| TRMT112 (GeneID 51504) | -0.92 | -0.45 | -1.23 | -1.07 | inactive |
| LOC389087 (retired record) (GeneID 389087) | -1.13 | -0.83 | -1.47 | -1.1 | inactive |
| DSP (GeneID 1832) | 0.52 | 0.68 | 0.42 | 0.47 | inactive |
| PCED1B (GeneID 91523) | 0.4 | 0.28 | 0.2 | 0.73 | inactive |
| FAM78A (GeneID 286336) | 0.99 | 0.78 | 1.08 | 1.11 | inactive |
| GPR4 (GeneID 2828) | 0.74 | 0.79 | 0.92 | 0.5 | inactive |
| USP13 (GeneID 8975) | 0.35 | 0.47 | 0.34 | 0.25 | inactive |
| PI4KA (GeneID 5297) | -0.32 | -0.82 | 0.05 | -0.2 | inactive |
| SMPDL3A (GeneID 10924) | 0.83 | 0.91 | 0.66 | 0.92 | inactive |
| EPHA5 (GeneID 2044) | 0.13 | 0.59 | 0.17 | -0.38 | inactive |
| GAD1 (GeneID 2571) | 0.83 | 1.32 | 0.83 | 0.34 | inactive |
| OR8G2P (GeneID 26492) | 0.82 | 0.71 | 0.87 | 0.88 | inactive |
| CYP46A1 (GeneID 10858) | -0.54 | -0.54 | -0.73 | -0.35 | inactive |
| VOPP1 (GeneID 81552) | 0.27 | 0.4 | 0.89 | -0.48 | inactive |

Quoted from the listing for reference:
| gene knocked down | mean z-score | z-score, replicate A | z-score, replicate B | z-score, replicate C | Call |
| --- | --- | --- | --- | --- | --- |
| GPR4 (GeneID 2828) | 0.74 | 0.79 | 0.92 | 0.5 | inactive |
| USP13 (GeneID 8975) | 0.35 | 0.47 | 0.34 | 0.25 | inactive |

Continued:
| gene knocked down | mean z-score | z-score, replicate A | z-score, replicate B | z-score, replicate C | Call |
| --- | --- | --- | --- | --- | --- |
| SNX11 (GeneID 29916) | 1.6 | 1.23 | 1.65 | 1.93 | inactive |
| HACD1 (GeneID 9200) | -1.14 | -1.18 | -1.08 | -1.15 | inactive |
| CNFN (GeneID 84518) | -0.56 | -0.65 | -0.57 | -0.46 | inactive |
| TTLL7 (GeneID 79739) | 0.85 | 1.28 | 0.52 | 0.75 | inactive |
| LOC401713 (retired record) (GeneID 401713) | 1.16 | 1.1 | 0.95 | 1.42 | inactive |
| DNAAF8 (GeneID 146562) | -0.32 | 0.13 | -0.61 | -0.49 | inactive |
| TMEM38B (GeneID 55151) | 1.59 | 1.56 | 1.78 | 1.44 | inactive |
| ATF2 (GeneID 1386) | -0.42 | -0.66 | -0.24 | -0.36 | inactive |
| SLC46A3 (GeneID 283537) | -0.5 | -0.43 | -0.52 | -0.56 | inactive |
